Primary screen of a compound library

Source: ChEMBL document CHEMBL3988442, “University of Dundee, Small-Polar-MMV Screening Library” (2021).

Mtb glucose medium: 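Phenotypic screen: M. tuberculosis growth, glucose 7H9 medium, 3 days; the read-out is not stated. Tested at 500 µM. The record gives no direction; compounds that gave an IC50 in retests scored well above the rest, so higher reads as more growth inhibition. Of about 18,000 compounds tested this way, about 1,400 (7.9%) reached 50% or more in at least one test.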
Mtb cholesterol medium: 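Growth of Mycobacterium tuberculosis over 4 days (cholesterol / DPPC medium with tyloxapol); the read-out is not stated. Tested at 500 µM. The record gives no direction; compounds that gave an IC50 in retests scored well above the rest, so higher reads as more growth inhibition. About 18,000 compounds were tested under these conditions; 5% (about 900) showed 50% or more at least once.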

Values are the deposited “Percent Effect”, in %.
The record does not define 0% and 100%; most values in the screen are far below 50% and negative numbers occur (in some assays of this library far below -100).
The entries come from a sample that favours strong results.
A dash means the value is not listed here; it may have been measured.

Compound	Mtb glucose medium	Mtb cholesterol medium
Fc1cnc2[nH]ccc2c1	-10.18%	-
O=C(Nc1nc2ccccc2[nH]1)C1CCCO1 (configuration not stated)	-	2.179%
CCS(=O)(=O)c1cccc(S(=O)(=O)N2CC[C@H](N)C2)c1	26.81%	17.36%
Nc1nnc(SCC(=O)NCCc2cccc(Cl)c2)s1	56.59%	-
Cc1nc(C)c(CC(=O)NCC(C)C)c(=O)[nH]1	-15.05%	-
Cc1cccc(CC(=O)N2CCn3cnnc3C2)c1	58.91%	-
CC(C)(CO)CNC(=O)c1c(O)cccc1F	-4.2%	-
CCNC(=O)C1CN(c2ccc(S(C)(=O)=O)cc2)C1	1.725%	-
N[C@@H]1CCc2ccccc21	23.47%	10.8%
CNCCCC(=O)Nc1ccccc1	-	2.413%
CN(CCn1cnnc1)CC(=O)NCc1ccc(Cl)s1	-7.728%	-
COc1ncccc1NC(=O)Nc1c(C)n[nH]c1C	-	-8.707%
Nc1nccnc1C(=O)Nc1ccccn1	10.11%	-
CN1CCN(C(=O)Cn2ccc3ccc(Br)cc32)CC1	-	75.88%
O=C(CC1(O)CCCCC1)NCC(O)c1ccsc1 (configuration not stated)	-	22.48%
CNC(C)(C)C(=O)OC	-1.436%	-
CN(C)c1cc(CNC(=O)C2CCC(=O)N2)ccn1 (configuration not stated)	19.58%	-
CCN(Cc1cccc(F)c1)C(=O)CC1(N)CCC1	-	-7.791%
Cc1ccc(C(=O)NCC(=O)NC(C)(C)C)c(O)c1	50.03%	-
Cc1cc(C)c2c(N[C@@H]3CC[C@@H](N)C3)ncnc2n1	-	-12.56%
CNS(=O)(=O)c1cccc2nonc12	9.853%	-
O=C1CCN(Cc2ccccc2)C2(CC2)C1	-	14.51%
COc1ccc2ccccc2c1CN	-1.765%	-
CN(C(=O)NCc1ccco1)C1(CCO)CCOCC1	-7.004%	-14.69%
CCN(Cc1noc(C)n1)Cc1cncn1CC	3.73%	-
CCN1CCCCC1C(=O)NCCc1ccco1 (configuration not stated)	-	4.965%
COC(=O)c1ccc(N2CCCC2)nn1	-2.988%	-0.7174%
Cc1cccc(C)c1-n1nnnc1SCC(N)=O	39.91%	-3.326%
N[C@@H]1C[C@H](O)[C@H]1n1cccn1	-	5.182%
COc1ccc(C(=O)C2CCCN2)cc1 (configuration not stated)	39.13%	-
N#Cc1ccnc(SCC(=O)Nc2ccncc2)c1	6.699%	-
Cc1cc(NC(=O)NC2CCOC2)n(C(C)C)n1 (configuration not stated)	-	11.33%
Cc1ccc(C(=O)N2CCC(F)(F)C(CO)C2)cn1 (configuration not stated)	11.98%	-
CS(=O)(=O)NCCC(=O)Nc1cccc2c1CCCC2	4.091%	-
COCCCNC(=O)c1c(C)oc(C)c1S(N)(=O)=O	-	-10.35%
CCN(CCO)Cc1cc(=O)n2cc(C)ccc2n1	-2.805%	-
Cc1noc(C)c1CC(=O)N1CCN(C)CC1	8.395%	-
CCNC(=O)C1CCN(c2ccncc2Cl)CC1	1.491%	1.738%
Nc1ccc2c(n1)NC(=O)CO2	-1.332%	-
O=C(c1nc(N2CCCC2)ncc1Cl)N1CCSCC1	31.1%	-
COc1ncccc1NS(=O)(=O)c1cccc(Cl)c1	-15.38%	-12.27%
NS(=O)(=O)C1CCN(C(=O)NCc2ccccc2)CC1	11.26%	-
CCCS(=O)(=O)Nc1cccc2c1CCN2C	31.11%	-
CCN1CCN(Cc2ccc(OC)c(OC)c2)CC1	-3.201%	-
CSCCC(=O)NCc1ccc(C)s1	62.21%	-
NC1CC(c2cc(NCCCc3ncc[nH]3)ncn2)C1 (configuration not stated)	-	4.591%
Cc1ccc(NC(=O)NC2CCCS(=O)(=O)C2)s1 (configuration not stated)	1.514%	-
NCC(=O)N1CCCC(CCc2ccc(F)cc2F)C1 (configuration not stated)	92.21%	90.91%
O=C(CC1C=CCC1)NCCNc1ncccn1 (configuration not stated)	25.62%	-
CCOC(=O)c1sc(N)c(C#N)c1CN1CCOCC1	14.61%	-
CCC(C#N)NC(=O)c1cnc(OC(C)C)c(Cl)c1 (configuration not stated)	78.4%	86.73%
NCC(O)c1ccc(F)c(F)c1 (configuration not stated)	36.11%	15.62%
CC(NC(=O)CCCn1cccc1)c1cnn(C)c1 (configuration not stated)	-0.6145%	-
COc1cc(C(C)=O)ccc1S(C)(=O)=O	-9.905%	-21.93%
Cn1ccc(COC(=O)CCc2ccccc2)cc1=O	16.14%	-
O=C(NC(c1ccccn1)C(F)(F)F)C1CCOCC1 (configuration not stated)	-	0.06998%
Cc1n[nH]c(NCc2ccsc2)n1	2.852%	-2.061%
CC(=O)NC1CCN(C(C)C)CC1	-2.835%	-
COC(=O)c1cnc(I)n1C	16.39%	-
NS(=O)(=O)NCC1CCN(c2cccc(Br)c2)C1 (configuration not stated)	75.79%	-
CCn1ncc(N)c1C(N)=O	13.31%	-

The first 4 entries again:

Compound,Mtb glucose medium,Mtb cholesterol medium
Fc1cnc2[nH]ccc2c1,-10.18%,-
O=C(Nc1nc2ccccc2[nH]1)C1CCCO1 (configuration not stated),-,2.179%
CCS(=O)(=O)c1cccc(S(=O)(=O)N2CC[C@H](N)C2)c1,26.81%,17.36%
Nc1nnc(SCC(=O)NCCc2cccc(Cl)c2)s1,56.59%,-